{"source": "patent EP0009325A1", "about": "“Erythritol cointaining anti-caries compositions” (PFIZER INC., priority 1978, dated 1980)", "origin": "cited, not measured here", "conditions": "at practical use levels; cited from earlier work", "data": [{"smiles": "OC[C@@H](O)[C@@H](O)CO", "note": "[erythritol]", "values": [{"measurement": "sweetness relative to sucrose", "result": "about 60%"}]}]}
